Pooled drug test results. Numbers come from NIAID ChemDB, via PubChem.

All rows: enzyme or target tests; organism: Hepatitis C virus; protein: HCV NS3 protease; measure: Ki

Neighbouring rows are from separate reports.

SMILES	value
CCC[C@H](NC(=O)[C@H](CC1CCCCC1)NC(=O)[C@@H](NC(=O)[C@H](CC(C)C)NC(=O)[C@@H](CCC(=O)O)NC(=O)[C@H](CCC(=O)O)NC(=O)CCC(=O)O)[C@@H](C)CC)C(=O)NS(=O)(=O)c1ccccc1	0.0136 µM
CCC[C@H](NC(=O)C1CCCN1C(=O)[C@@H](NC(=O)[C@@H](NC(=O)[C@H](CCC(=O)O)NC(=O)[C@@H](N)CC(=O)O)C(C)C)C(C)C)B1OC2CC3CC(C3(C)C)[C@]2(C)O1	0.006 µM
CC[C@H](C)[C@H](NC(=O)[C@H](CC(C)C)NC(=O)[C@@H](CCC(=O)O)NC(=O)CCC(=O)O)C(=O)N[C@@H](CC1CCCCC1)C(=O)N[C@@H](Cc1ccccc1)C(=O)O	30 µM
CC[C@H](C)[C@H](NC(=O)OCc1ccccc1)C(=O)N[C@@H](CC(C)C)C(=O)N[C@@H](CC(F)F)C(=O)C(=O)O	17 µM
CC(=O)N[C@@H](C(=O)O)C(=O)N[C@@H](CCC(=O)O)C(=O)N[C@H](C(=O)N[C@@H](CCC(=O)O)C(=O)N[C@@H](CC1CCCCC1)C(=O)N[C@@H](CC(F)F)C(=O)C(=O)O)C(c1ccccc1)c1ccccc1	0.00001 µM
CCC[C@@H](NC(=O)[C@@H]1C[C@@H](OCc2ccc3ccccc3c2)CN1C(=O)[C@@H](NC(=O)[C@@H](NC(=O)[C@@H](CCC(=O)O)NC(=O)[C@H](CC(=O)O)NC(C)=O)C1CCCCC1)C(C)C)C(=O)O	0.003 µM
CC(C)C[C@H](NC(=O)[C@@H](NC(=O)[C@@H](NC(=O)[C@H](CC(=O)O)NC(=O)[C@@H](N)CCC(=O)O)C(C)C)C(C)C)C(=O)N[C@@H](CS)C(=O)N1Cc2ccccc2C[C@H]1C(=O)O	120 µM
CSCC[C@H](NC(=O)[C@H](CCC(=O)O)NC(=O)[C@@H](N)CC(=O)O)C(=O)N[C@@H](CCC(=O)O)C(=O)N[C@@H](CCC(=O)O)C(=O)N[C@@H](CS)C(=O)O	0.6 µM
CC(=O)N[C@@H](C(=O)O)C(=O)N[C@@H](CCC(=O)O)C(=O)N[C@H](C(=O)N[C@@H](CCC(=O)O)C(=O)N[C@@H](CC1CCCCC1)C(=O)N[C@@H](CS)C(=O)O)C(c1ccccc1)c1ccccc1	0.04 µM
CCC[C@H](NC(=O)[C@H](CC1CCCCC1)NC(=O)[C@@H](NC(=O)[C@H](CC(C)C)NC(=O)[C@@H](CCC(=O)O)NC(=O)CCC(=O)O)[C@@H](C)CC)c1nn[nH]n1	5.3 µM
CSCC[C@H](NC(=O)[C@H](CCC(=O)O)NC(=O)[C@@H](N)CC(=O)O)C(=O)N[C@@H](CCC(=O)O)C(=O)N[C@@H](CCC(=O)O)C(=O)N[C@@H](CS)C(N)=O	80 µM
CCC[C@H](NC(=O)[C@H](CC1CCCCC1)NC(=O)[C@@H](NC(=O)[C@H](CC(C)C)NC(=O)[C@@H](CCC(=O)O)NC(=O)[C@H](CCC(=O)O)NC(=O)CCC(=O)O)[C@@H](C)CC)C(=O)O	0.22 µM
CC(C)C[C@H](NC(=O)[C@H](CCC(=O)O)NC(=O)OC(C)(C)C)C(=O)N[C@@H](CC(F)F)C(=O)C(=O)O	18.5 µM
CCC[C@H](NC(=O)[C@H](CC1CCCCC1)NC(=O)[C@@H](NC(=O)[C@H](CC(C)C)NC(=O)[C@@H](CCC(=O)O)NC(=O)CCC(=O)O)[C@@H](C)CC)C(=O)NS(=O)(=O)c1ccccc1	0.21 µM
C[C@@H](O)[C@H](NC(=O)[C@H](CO)NC(=O)[C@H](CS)NC(=O)[C@@H](N)CC(=O)O)C(=O)N1CCC[C@H]1C(=O)N[C@@H](CS)C(=O)O	180 µM
CC[C@H](NC(C)=O)C(=O)N[C@@H](CCC(=O)O)C(=O)N[C@H](C(=O)N[C@@H](CCC(=O)O)C(=O)N[C@@H](CC1CCCCC1)C(=O)N[C@@H](CC(F)F)C(=O)C(=O)O)C(c1ccccc1)c1ccccc1	0.00001 µM
CC[C@H](NC(=O)[C@@H](NC(=O)[C@@H](NC(=O)[C@H](CC(=O)O)NC(=O)[C@@H](N)CCC(=O)O)C(C)C)C(C)C)C(=O)N[C@@H](CS)C(=O)O	1.4 µM
Cn1c(C(F)(F)c2nc3ccc(C(=O)NC(CP(=O)(O)O)C(=O)O)cc3[nH]2)nc2ccc(C(=O)NC(CP(=O)(O)O)C(=O)NC(CP(=O)(O)O)C(=O)O)cc21	0.027 µM
CC(=O)N[C@@H](CC(=O)O)C(=O)N[C@@H](CCC(=O)O)C(=O)N[C@H](C(=O)N[C@@H](CCC(=O)O)C(=O)N[C@@H](CC1CCCCC1)C(=O)NC(CC(F)F)C(=O)C(=O)O)C(c1ccccc1)c1ccccc1	0.00001 µM

The last 2 rows once more:

SMILES,value
Cn1c(C(F)(F)c2nc3ccc(C(=O)NC(CP(=O)(O)O)C(=O)O)cc3[nH]2)nc2ccc(C(=O)NC(CP(=O)(O)O)C(=O)NC(CP(=O)(O)O)C(=O)O)cc21,0.027 µM
CC(=O)N[C@@H](CC(=O)O)C(=O)N[C@@H](CCC(=O)O)C(=O)N[C@H](C(=O)N[C@@H](CCC(=O)O)C(=O)N[C@@H](CC1CCCCC1)C(=O)NC(CC(F)F)C(=O)C(=O)O)C(c1ccccc1)c1ccccc1,0.00001 µM